Anti-infective test results gathered from many reports (values: NIAID ChemDB through PubChem).

All rows: tests in culture; organism: HIV-1; read by: syncytia; measure: EC50

Conditions beyond the fields shown may differ between rows.

compound,cell line,mutations,strain or isolate,result
Cc1ccc(C)c(C(C)S(=O)(=O)c2ccc(C)c[n+]2[O-])c1,CEM,,MN,60 µg/mL
CCC1=C(C(=O)Nc2ccc(Cl)c(C(=O)OCC(C)C)c2)SCCO1,CEM,RT-L100I,TIBO-resistant (RT L100I),0.3 µg/mL
COc1cc(CS(=O)(=O)c2cccc[n+]2[O-])ccc1OCc1ccccc1,CEM + CEM-SS,,IIIB,>4 µg/mL
Nc1ncnc2c1ncn2COCCOP(=O)(O)O,SupT1 + Sup-T1,,,<300 µM
Cc1occc1C(=S)Nc1ccc(Cl)c(SCC=C(Cl)Cl)c1,CEM,RT-K103N,TIBO R82913-resistant (RT K103N),0.08 µg/mL
Nc1ncnc2c1ncn2COCCOP(=O)([O-])O[C@@H]1[C@H](O)[C@@H](COP(=O)([O-])O[C@@H]2[C@H](O)[C@@H](COP(=O)([O-])O[C@@H]3[C@H](O)[C@@H](CO)O[C@H]3n3cnc4c(N)ncnc43)O[C@H]2n2cnc3c(N)ncnc32)O[C@H]1n1cnc2c(N)ncnc21,SupT1 + Sup-T1,,,<300 µM
CC(C)O/N=C/c1cc(NC(=S)OC(C)C)ccc1Cl,CEM,RT-V106A,,1.36 µM
O=C(c1cccc(Br)c1)c1ccc2[nH]c(=O)oc2c1,CEM,,IIIB,>8 µg/mL
CC(C)OC(=S)Nc1ccc(Cl)c(C(=O)OCc2ccccc2)c1,CEM,RT-L100I,,15.1 µM
COc1ccc(NC(=S)c2ccsc2C)cc1OCC=C(Cl)Cl,CEM,RT-E138K,TSAO-m3T-resistant (RT E138K),0.13 µg/mL
Cc1occc1C(=S)Nc1ccc(Cl)c(/C=N/N(C)C)c1,CEM,RT-Y188L,HEPT-resistant (RT Y188L),<2 µg/mL
Cc1occc1C(=S)Nc1ccc(Cl)c(OCC=C(Cl)Cl)c1,CEM,RT-K103N,TIBO R82913-resistant (RT K103N),0.28 µg/mL
CC1=C(C(=O)Nc2ccc(F)c(C(=O)OC(C)C)c2)SCCO1,CEM,RT-L100I,TIBO-resistant (RT L100I),>10 µg/mL
O=C(CCCCCNCCCCCNCc1ccccc1)Nc1ccn([C@@H]2CS[C@@H](COC(=O)CCCCCNCCCCCNCc3ccccc3)O2)c(=O)n1,MT-4,,LAV,10 µM
CCCCC(CC)COC(=O)c1cc(NC(=S)OC(C)C)ccc1Cl,CEM,RT-Y181C,,16.84 µM
CCc1c(Cc2cc(C)cc(C)c2)n(COCCO)c(=O)[nH]c1=O,CEM,RT-K103N,IIIB TIBO R82913-resistant (RT K103N),2 µM
C=C(Cl)COc1cc(NC(=S)c2ccoc2C)ccc1Cl,CEM,RT-Y188H,HEPT-resistant (RT Y188H),2 µg/mL
O=C(CCCCCNCCCCCNCc1ccccc1)Nc1ccn([C@H]2CS[C@@H](CO)O2)c(=O)n1,Macrophage + Monocytes/macrophages,,PAR,0.1 µM
CCc1c(Sc2cc(C)cc(C)c2)n(COCCO)c(=S)[nH]c1=O,CEM,RT-Y188H,IIIB,≥10 µM
O=c1[nH]c2ccc(Cc3ccccc3F)cc2o1,CEM,,IIIB,>8 µg/mL
CC1=C(C(=O)Nc2cc(C(=O)OC(C)C)c(C)cc2F)SCCO1,CEM,RT-E138K,TSAO-resistant (RT E138K),>10 µg/mL
CCOCn1c(Sc2ccccc2)c(C(C)C)c(=O)[nH]c1=O,CEM,RT-Y181I,IIIB,>10 µM
CN(Cc1nc2ccccc2[nH]1)Cc1ncccc1CCC(=O)N(C)C,C8166,,IIIB,21.2 µM
CC(C)c1c(Sc2ccccc2)n(COCCO)c(=S)[nH]c1=O,CEM,RT-Y188H,IIIB,>10 µM
COC(=O)c1cc(NC(=S)OC(C)C)ccc1Cl,CEM,,IIIB,1.738 µM
CC1=C(C(=O)Nc2ccc(Cl)c(C(=O)OC3CCCCC3C)c2)SCCO1,CEM,RT-L100I,TIBO-resistant (RT L100I),3.5 µg/mL
Nc1ccnc(OC[C@H]2CC[C@@H](COCc3ccccc3)O2)n1,CEM,,IIIB,>250 µM
C=CCOc1cc(NC(=S)OC(C)C)ccc1C#N,CEM,RT-L100I,,≥3.618 µM
CN(Cc1nc2ccccc2[nH]1)Cc1ncccc1CCCNC(=O)N(C)C,C8166,,IIIB,9.386 µM
O=C(c1ccc(F)cc1)c1ccc2[nH]c(=O)oc2c1,CEM,,IIIB,>40 µg/mL
Cc1ccc(C)c(CSc2c(Cl)ccc[n+]2[O-])c1,CEM,,RF,0.16 µg/mL
O=C(O)c1cc(NS(=O)(=O)c2ccc(-c3ccc(S(=O)(=O)Nc4cc(C(=O)O)c(O)c(S(=O)(=O)O)c4)cc3)cc2)cc(S(=O)(=O)O)c1O,MT-4,,IIIB,<99 µM
Cc1ccc(C)c(C(C)S(=O)(=O)c2c(C)ccc[n+]2[O-])c1,CEM,,RF,0.3 µg/mL
CC1=C(C(=O)Nc2ccc(Cl)c(C(=O)OC3CCCC3)c2)SCCO1,CEM,RT-E138K,TSAO-resistant (RT E138K),0.55 µg/mL
O=C(CCCCCNCCCCNCc1ccccc1)Nc1ccn([C@H]2CS[C@H](COC(=O)CCCCCNCCCCNCc3ccccc3)O2)c(=O)n1,MT-4,,LAV,10 µM
CCc1c(Sc2ccccc2)n(COCc2ccccc2)c(=O)[nH]c1=O,CEM,RT-K103N,IIIB TIBO R82913-resistant (RT K103N),0.82 µM
O=C(c1cccc(Cl)c1)c1ccc2c(c1)sc(=O)n2Cc1ccccc1,CEM,,IIIB,>1.6 µg/mL
CO/N=C(\C)COc1cc(NC(=S)OC(C)C)ccc1Cl,CEM,RT-V106A,,6.045 µM
CC1=C(C(=O)N(C)c2ccc(Cl)c(C(=O)OC(C)C)c2)SCCO1,CEM,,IIIB,>10 µg/mL
CN(Cc1ccccn1)Cc1ncccc1CCC#N,C8166,,IIIB,5.571 µM
CC1=C(C(=O)Nc2ccc(Cl)c(C(=O)OC(C)C)c2)SCCO1,CEM,RT-L100I,IIIB,>112 µM
COc1ccc2c(c1)[nH]c1cc(OC)c(C=O)cc12,1A2,,,29.1 µM
Cc1cc(CS(=O)(=O)c2cccc[n+]2[O-])c(C)cc1CS(O)(O)c1ccc[n+]([O-])c1,CEM + CEM-SS,,IIIB,10 µg/mL
CC(C)=CCOc1cc(NC(=S)c2ccsc2C)ccc1Cl,CEM,RT-Y188L,IIIB,0.06 µg/mL
Nc1ncnc2c1ncn2COCCOP(=O)([O-])O[C@@H]1[C@H](O)[C@@H](COP(=O)([O-])O[C@@H]2[C@H](O)[C@@H](CO)O[C@H]2n2cnc3c(N)ncnc32)O[C@H]1n1cnc2c(N)ncnc21,SupT1 + Sup-T1,,,<300 µM
CC(C)=CCOc1cc(NC(=S)c2ccoc2C)ccc1Cl,CEM,,IIIB,0.009 µM
O=C(c1ccccc1)c1ccc2c(c1)sc(=O)n2Cc1ccccc1,CEM,,IIIB,>8 µg/mL
CN(Cc1ncccc1CCC#N)Cc1nccc2ccccc12,C8166,,IIIB,2.811 µM
Cc1cc(C)c(Nc2ccnc(Nc3ccc(C#N)cc3)n2)c(C)c1,CEM,,IIIB,0.001 µM
CSc1ccc(NC(=S)OC(C)C)cc1C(=O)OC(C)C,CEM,RT-V106A,,18.32 µM
Nc1cc(OC[C@H]2CC[C@@H](CO)O2)nc(N)n1,CEM,,IIIB,>250 µM
C=C(C)[C@]1(O)C[C@@H](C)[C@@]2(O)[C@H]([C@H]1OC(=O)/C=C/C=C/CCCCC)[C@@H]1O[C@]1(CO)[C@@H](O)[C@]1(O)C(=O)C(C)=C[C@H]12,C8166,,IIIB,0.01447 µM
C/C(Cl)=C/COc1cc(NC(=O)c2ccoc2C)ccc1Cl,CEM,RT-K103N,TIBO R82913-resistant (RT K103N),2.5 µg/mL
CCCCCCCCCC[N+](C)(C)CCCNCc1c(O)cc2c(c1O)-c1cc(ccc1O)[C@H]1NC(=O)[C@@H]3NC(=O)C4NC(=O)[C@@H](Cc5ccc(c(Cl)c5)Oc5cc3cc(c5O)Oc3ccc(cc3Cl)[C@@H](O)[C@H](NC1=O)C(=O)N[C@@H]2C(=O)O)NC(=O)[C@H](N)c1ccc(O)c(c1)Oc1cc(O)cc4c1,CEM,,IIIB,2.8 µM
CCCCOC(=O)c1cc(NC(=O)C2=C(C)OCCS2)ccc1Cl,CEM,RT-L100I,TIBO-resistant (RT L100I),0.7 µg/mL
COc1ccc(NC(=O)c2ccoc2C)cc1OCC=C(Cl)Cl,CEM,RT-L100I,TIBO R82150-resistant (RT L100I),5 µg/mL
CCOC(=O)c1cc(NC(=O)C2=C(CC)OCCS2)ccc1Cl,CEM,,IIIB,0.07 µg/mL
C=C(Cl)COc1cc(NC(=S)c2ccoc2C)ccc1C,CEM,RT-E138K,TSAO-m3T-resistant (RT E138K),0.6 µg/mL
CCOC(=O)COc1cc(NC(=S)OC(C)C)ccc1Cl,CEM,RT-V106A,,6.027 µM
COc1ccc(C)cc1CS(=O)(=O)c1cccc[n+]1[O-],CEM,RT-E103K,IIIB,48 µg/mL
CCOCn1c(Cc2ccccc2)c(CC)c(=O)[nH]c1=O,CEM,RT-Y181I,IIIB,6.9 µM
CN1CCN(c2ccnc3nc(CN(C)C4CCCc5cccnc54)[nH]c23)CC1,C8166,,IIIB,0.025 µM
O=C(Nc1ccc(Cl)c(C(=O)OC2CCCCC2)c1)c1ccccc1F,CEM,RT-L100I,IIIB,≥10 µg/mL
C=CC(C)(C)c1c2c(c(O)c3ccc(=O)oc13)C(=O)CC(C)(C)O2,1A2,,,5.3 µM
CC(C)c1c(Sc2ccccc2)n(COCc2ccccc2)c(=S)[nH]c1=O,CEM,,IIIB,0.004 µM
C/C=C/COc1cc(NC(=S)OC(C)C)ccc1Cl,CEM,RT-L100I,,1.334 µM
CC(=O)COc1cc(NC(=S)OC(C)C)ccc1Cl,CEM,,IIIB,2.7 µM
CCc1c(Sc2cc(C)cc(C)c2)n(COCc2ccccc2)c(=O)[nH]c1=O,CEM,,IIIB,0.001 µM
CC(=O)n1c(=O)sc2cc(C(=O)c3cccc(F)c3)ccc21,CEM,,IIIB,4.6 µg/mL
CCCOC(=O)c1cc(NC(=S)OC(C)C)ccc1Cl,CEM,,IIIB,0.0316 µM
C=C(C)[C@@H]1CC[C@]2(C(=O)NCCCCCCCC(=O)N[C@@H](CC(C)C)[C@@H](O)CC(=O)O)CC[C@]3(C)[C@H](CC[C@@H]4[C@@]5(C)CC[C@H](O)C(C)(C)[C@@H]5CC[C@]43C)[C@@H]12,HeLa P4 + HeLa,GP41-I69V,LAI,<10 µM
CCCCCOC(=S)Nc1ccc(Cl)c(C(=O)OC(C)C)c1,CEM,RT-Y181C,,17.45 µM
OC[C@H]1OC(O)C[C@@H](O)[C@@H]1O,MT-4,,,<10000 µM
CC(C)OC(=S)Nc1ccc(Cl)c(C(=O)O)c1,CEM,RT-Y181C,,>36.53 µM
CC(C)c1c(Sc2ccccc2)n(COCCO)c(=O)[nH]c1=O,CEM,RT-Y188H,IIIB,>10 µM
O=S(=O)(Cc1ccc(CS(O)(O)c2ccc[n+]([O-])c2)cc1)c1cccc[n+]1[O-],CEM + CEM-SS,,IIIB,≥20 µg/mL
CC(C)(C)OC(=O)N(CCCCCC(=O)OC[C@H]1O[C@@H](n2ccc(N)nc2=O)CS1)CCCCCN(Cc1ccccc1)C(=O)OC(C)(C)C,MT-4,,LAV,0.01 µM
C=CCSc1cc(NC(=S)OC(C)C)ccc1Cl,CEM,RT-L100I,,2.231 µM
N#C/C(=C\c1ccccc1)Sc1ccccc1O,CEM + CEM-SS,,IIIB,>4 µg/mL
O=C(c1ccccc1)c1ccc2[nH]c(=O)sc2c1,CEM,,IIIB,>1.6 µg/mL
CCCCOC(=S)Nc1ccc(Cl)c(C(=O)OC(C)C)c1,CEM,RT-L100I,,10.6 µM
O=C(c1ccc2[nH]c(=O)oc2c1)c1ccccc1F,CEM,,IIIB,>8 µg/mL
CCOC(=O)C(C)Oc1cc(NC(=S)OC(C)C)ccc1Cl,CEM,RT-L100I,,18.79 µM
Nc1cc(OC[C@H]2CC[C@@H](CO)O2)ncn1,CEM,,IIIB,>250 µM
Cc1ccc(C)c(CS(=O)(=O)c2cccc[n+]2[O-])c1,C8166,,IIIB,6.1 µg/mL
CC(C)OC(=O)c1cc(NC(=S)OCC2CC2)ccc1Cl,CEM,RT-E138K,,6.1 µM
c1ccc(COC[C@@H]2CC[C@H](COc3ncnc4nc[nH]c34)O2)cc1,CEM,,IIIB,>2 µM
CC(C)OC(=S)Nc1ccc(Cl)c(C(=O)OCC(F)(F)F)c1,CEM,,IIIB,0.984 µM
CCC(=O)Oc1ccc(NC(=O)C2=C(C)OCCS2)cc1C(=O)OC(C)C,CEM,,IIIB,4.5 µg/mL
CN1CCN(C(=O)c2ccc3c(=O)c4ccccc4[nH]c3c2)CC1,CEM,,IIIB,0.019 µM
CC(C)=CCOc1cc(NC(=S)c2ccoc2C)ccc1Cl,CEM,RT-K103N,IIIB,0.07 µg/mL

A second listing of 10 rows from above:

compound,cell line,mutations,strain or isolate,result
COc1ccc(NC(=S)c2ccsc2C)cc1OCC=C(Cl)Cl,CEM,RT-E138K,TSAO-m3T-resistant (RT E138K),0.13 µg/mL
Cc1ccc(C)c(C(C)S(=O)(=O)c2ccc(C)c[n+]2[O-])c1,CEM,,MN,60 µg/mL
C/C=C/COc1cc(NC(=S)OC(C)C)ccc1Cl,CEM,RT-L100I,,1.334 µM
C=C(Cl)COc1cc(NC(=S)c2ccoc2C)ccc1Cl,CEM,RT-Y188H,HEPT-resistant (RT Y188H),2 µg/mL
CN(Cc1ccccn1)Cc1ncccc1CCC#N,C8166,,IIIB,5.571 µM
Cc1occc1C(=S)Nc1ccc(Cl)c(OCC=C(Cl)Cl)c1,CEM,RT-K103N,TIBO R82913-resistant (RT K103N),0.28 µg/mL
Cc1ccc(C)c(C(C)S(=O)(=O)c2c(C)ccc[n+]2[O-])c1,CEM,,RF,0.3 µg/mL
CN(Cc1ncccc1CCC#N)Cc1nccc2ccccc12,C8166,,IIIB,2.811 µM
COC(=O)c1cc(NC(=S)OC(C)C)ccc1Cl,CEM,,IIIB,1.738 µM
C=C(C)[C@]1(O)C[C@@H](C)[C@@]2(O)[C@H]([C@H]1OC(=O)/C=C/C=C/CCCCC)[C@@H]1O[C@]1(CO)[C@@H](O)[C@]1(O)C(=O)C(C)=C[C@H]12,C8166,,IIIB,0.01447 µM

ECn: concentration that inhibits the pathogen or its effect by n%. Blank or dashed fields: not listed here.